Results of unrelated studies side by side (data: NIAID ChemDB).

Common to all: growth or infection tests; species: HIV-1; cell line: C8166; read-out: EC50

ECn is the concentration giving n% inhibition of infection, replication or growth. Blank or dashed fields: not listed here. Lines come from different laboratories, so protocols vary.

compound,strain or isolate,mutations,method,value
CCOCn1c(Cc2ccccc2)c(C(C)C)c(=O)[nH]c1=O,IIIB,-,cytopathic effect,0.003 µg/mL
Cc1nc(CCCCCCC(=O)c2ccccc2)n2nc(-n3ccnc3)ccc12,RF,-,p24,0.005 µM
CC(C)=CCOn1c(C=C(C)C)nc2c(C)cccc21,IIIB,-,RT activity,10 µM
Cc1nc(NC(=O)C2CCC3(CC2)CC3)c(C)c(-c2ccc(Cl)cc2)c1[C@H](OC(C)(C)C)C(=O)O,NL4-3,-,luciferase,15 nM
CCc1c(CC2CCCCC2)nc(SCC(=O)c2ccccc2)[nH]c1=O,Clinical isolate,KM018,ELISA,0.0418 µM
COc1ccc2c(c1)CCCN2CCC(=O)N1CCN(c2ccccn2)CC1,IIIB,-,syncytia / visual reading,21.07 µg/mL
Cc1nc(CCCCCOC(=O)c2ccccc2)n2nc(Cl)ccc12,RF,-,syncytia,1.6 µM
O=c1[nH]cnc2c1ncn2[C@H]1CC[C@@H](CO)O1,-,RT-L74V,p24,16 µM
CCOC(=O)c1ccc(COP(=O)(O)OC[C@H]2O[C@@H](n3cc(C)c(=O)[nH]c3=O)C[C@@H]2N=[N+]=[N-])cc1,IIIB,-,syncytia,0.032 µM
O=c1c(O)c(-c2ccc(O)c(O)c2)oc2cc(OC3OC(CO)C(O)C(O)C3O)cc(O)c12,MN,-,ELISA,>250 µg/mL
Cc1cn([C@H]2C[C@H](N=[N+]=[N-])[C@@H](CO)O2)c(=O)nc1N(C)N,IIIB,-,MTT / ELISA,0.16 µM
CC(C)=CCOc1cc(NC(=S)c2ccoc2C)ccc1Cl,IIIB,-,cytopathic effect,0.002 µg/mL
COc1ccc2oc3c([N+](=O)[O-])cccc3c2c1,-,-,syncytia,78.89 µg/mL
Cc1cn([C@H]2C[C@H](N=[N+]=[N-])[C@@H](COP(=O)(OCc3ccccc3)OCc3ccccc3)O2)c(=O)[nH]c1=O,IIIB,-,syncytia,0.08 µM
C=CCOn1c(C=C)nc2ccc(C)cc21,IIIB,-,RT activity,16 µM
COc1ccc2c(c1)CCCN2CCC(=O)N1CCN(c2ccccc2F)CC1,IIIB,-,syncytia / visual reading,17.89 µg/mL
Cc1cn([C@H]2C[C@H](N=[N+]=[N-])[C@@H](COP(=O)(O)O)O2)c(=O)[nH]c1=O,IIIB,-,syncytia,0.008 µM
Cc1cn([C@H]2C[C@H](N=[N+]=[N-])[C@@H](CO)O2)c(=O)[nH]c1=O,IIIB,-,syncytia,0.002 µM
O=C(OCC1OC(OCCc2ccccc2)C(O)C(O)C1O)c1cc(O)c(O)c(O)c1,MN,-,ELISA,40 µg/mL
Cc1nc(C(=O)N[C@@H](C)c2ccccc2)c(C)c(-c2ccc(Cl)cc2)c1[C@H](OC(C)(C)C)C(=O)O,NL4-3,-,luciferase,22 nM
Cc1cn([C@H]2C[C@H](N=[N+]=[N-])[C@@H](CO)O2)c(=O)[nH]c1=O,BILA2185-resistant (PR I84V),-,p24,0.012 µM
Cc1ccc(S(=O)(=O)Nc2ccccc2OCC(=O)Nc2ccc(S(N)(=O)=O)cc2)cc1,IIIB,-,syncytia,0.61 µM
Nc1ncnc2c1ncn2[C@H]1CC[C@@H](CO)O1,IIIB,-,syncytia,17 µM
Cc1cn([C@H]2C[C@H](N=[N+]=[N-])[C@@H](CO)O2)c(=O)[nH]c1=O,MN,-,ELISA,0.016 µM
Cc1cn([C@H]2C[C@H](N=[N+]=[N-])[C@@H](CO)O2)c(=O)[nH]c1=O,IIIB,-,p24 / ELISA,0.03445 µM
NS(=O)(=O)c1ccc(NC(=O)COc2ccc(Cl)cc2NS(=O)(=O)c2ccc([N+](=O)[O-])cc2)cc1,IIIB,-,syncytia,3.124 µM
O=C(O)C1(O)C[C@@H](O)C(O)[C@H](O)C1,MN,-,ELISA,>200 µg/mL
Cc1cn([C@H]2C[C@H](N=[N+]=[N-])[C@@H](CO)O2)c(=O)nc1NO,IIIB,-,MTT / ELISA,4 µM
Cc1cc(C)cc(S(=O)(=O)c2c(C(N)=O)[nH]c3ccc(Cl)cc23)c1,WILD TYPE,-,MTT,0.01 µM
Cc1cn([C@H]2C[C@H](N=[N+]=[N-])[C@@H](CO)O2)c(=O)[nH]c1=O,-,RT-M41L L74V V106A T215F,p24,0.062 µM
NS(=O)(=O)c1ccc(NC(=O)COc2ccc(Cl)cc2NS(=O)(=O)c2ccc(Cl)cc2)cc1,IIIB,-,syncytia,0.452 µM
Cc1cn([C@H]2C[C@H](N=[N+]=[N-])[C@@H](CO)O2)c(=O)[nH]c1=O,IIIB,-,syncytia,0.14 µg/mL
COc1ccc2c(c1)CCCN2CCC(=O)N1CCN(c2cccc(Cl)c2)CC1,IIIB,-,syncytia / visual reading,18.38 µg/mL
Cc1cn([C@H]2C[C@H](N=[N+]=[N-])[C@@H](CO)O2)c(=O)[nH]c1=O,CC,-,cytopathic effect / MTT,0.009 µM
O=[N+]([O-])c1cccc2c1oc1cc(F)ccc12,-,-,syncytia,15.32 µg/mL
Cc1cn([C@H]2C[C@H](N=[N+]=[N-])[C@@H](COP(=O)(OCc3ccc(C(=O)OC(C)(C)C)cc3)OCc3ccc(C(=O)OC(C)(C)C)cc3)O2)c(=O)[nH]c1=O,IIIB,-,syncytia,8 µM
Cc1nc(-c2nc3ccccn3c2C)c(C)c(-c2ccc(Cl)cc2)c1[C@H](OC(C)(C)C)C(=O)O,NL4-3,-,luciferase,5.9 nM
CC(=O)O[C@H]1C[C@H](n2cc(C)c(=O)[nH]c2=O)O[C@@H]1CO,RF,-,p24 / ELISA,>100 µM
Cc1cccc(C)c1OCC(=O)N[C@@H](Cc1ccccc1)[C@H](O)CN1CC[C@@H](Sc2ccncc2)C[C@H]1C(=O)NC(C)(C)C,IIIB,-,p24,0.002 µM
Cc1nc(CCCCCCC(=O)c2ccccc2)n2nc(-n3cccc3)ccc12,RF,-,p24,0.005 µM
COc1ccc2nc(C=C(C)C)n(OCC=C(C)C)c2c1,IIIB,-,RT activity,16 µM
Cc1nc(CCCCCCC(=O)c2ccccc2)n2nc(-n3cncc3C)ccc12,RF,-,syncytia,0.01 µM
NC(=O)C(c1ccccc1)(c1ccccc1)[C@H]1CCCN(CCc2ccc3c(c2)CCO3)C1,NL4-3,-,cytopathic effect / XTT,0.69 µM
CC(C)=CCOc1cc(NC(=S)c2ccsc2C)ccc1Cl,IIIB,-,cytopathic effect,0.002 µg/mL
COc1cc([C@H](O)[C@H](COC(C)=O)Oc2ccc(C(=O)CCO)cc2OC)ccc1O,IIIB,-,syncytia / visual reading,2.26 µg/mL
CCCCCCCOn1c(CCCCCC)nc2c(C)cccc21,IIIB,-,RT activity,40 µM
N#Cc1ccc2oc3ccccc3c2c1,-,-,syncytia,12.52 µg/mL
Cc1nc(CCCCCCC(O)c2ccccc2)n2nc(-n3ccnc3)ccc12,RF,-,syncytia,0.006 µM
CC(C)C[C@H](NC(=O)[C@H](CC(=O)OS(=O)(=O)O)NC(=O)[C@@H](N)Cc1ccc(OS(=O)(=O)O)cc1)C(=O)N[C@@H](CC(=O)OS(=O)(=O)O)C(=O)N[C@@H](Cc1ccc(OS(=O)(=O)O)cc1)C(=O)N[C@@H](Cc1ccc(OS(=O)(=O)O)cc1)C(=O)O.CCN(CC)CC.CCN(CC)CC.CCN(CC)CC.CCN(CC)CC.CCN(CC)CC,GUN1,-,syncytia,<200 µg/mL
N#Cc1cccc2c1oc1cc(F)ccc12,-,-,syncytia,18.57 µg/mL
Cc1ccc(S(=O)(=O)Nc2cc(Cl)ccc2OCC(=O)Nc2ccc(S(N)(=O)=O)cc2)cc1,IIIB,-,syncytia,0.108 µM
Cc1cn([C@@H]2O[C@H](CO[Si](C)(C)C(C)(C)C)C3(OS(=O)(=O)C=C3N)[C@H]2O[Si](C)(C)C(C)(C)C)c(=O)n(C)c1=O,IIIB,-,cytopathic effect,0.026 µg/mL
COC(=O)[C@H](C)NP(=O)(OC[C@@H]1C=C[C@H](n2cnc3c(N)ncnc32)O1)Oc1ccccc1,IIIB,-,syncytia,0.055 µM
Cc1cn([C@H]2C[C@H](N=[N+]=[N-])[C@@H](COP(=O)(O)OCc3ccc(C(=O)OC(C)C)cc3)O2)c(=O)[nH]c1=O,IIIB,-,syncytia,0.016 µM
O=[N+]([O-])c1ccc2oc3cc(F)ccc3c2c1,-,-,syncytia,21.8 µg/mL
C[C@@H]1O[C@@H](OC[C@H]2O[C@@H](Oc3c(-c4ccc(O)c(O)c4)oc4cc(O)cc(O)c4c3=O)[C@H](O)[C@@H](O)[C@@H]2O)[C@H](O)[C@H](O)[C@H]1O,IIIB X4,-,syncytia,>330 µM
CC(=O)O[C@H]1C[C@H](n2cc(C)c(=O)[nH]c2=O)O[C@@H]1COP(=O)(OCC(Cl)(Cl)Cl)OCC(Cl)(Cl)Cl,RF,-,p24 / ELISA,35 µM
COc1ccc(S(=O)(=O)Nc2cc(Cl)ccc2OCC(=O)Nc2ccc(S(N)(=O)=O)cc2)cc1,IIIB,-,syncytia,0.105 µM
O=c1oc2c(CN(CCO)CCO)c(O)ccc2cc1-c1nc2ccccc2s1,IIIB,-,p24 / ELISA / antigen,4.33 µM
Cc1cn([C@H]2C[C@H](N=[N+]=[N-])[C@@H](CO)O2)c(=O)nc1NNCCO,IIIB,-,MTT / ELISA,0.16 µM
Cc1nc(CCCCCOCc2ccccc2)n2nc(Cl)ccc12,RF,-,syncytia,0.58 µM
Cc1cc(S(N)(=O)=O)ccc1NC(=O)COc1ccc(Cl)cc1C(=O)c1cc(Cl)cc(C#N)c1,IIIB,-,syncytia,0.0014 µM
CCO[C@H]1C[C@H](n2cc(C)c(=O)[nH]c2=O)O[C@@H]1CO,RF,-,p24 / ELISA,100 µM